Paper PMC6723440 (Toxins, 2019)

Tests used:
[1] = human, pH 7.4
[2] = human, pH 7.4; remark: listed apart in the source
[3] = human, pH 7.4; remark: listed apart in the source

7-β-hydroxy-zearalenol [β-ZOL]
Number of Metabolites (n): Desaturation oxidation, −(H2) +(O2) [1]: 0 | Number of Metabolites (n): Reduction, oxidation, +(H2) +(O) [1]: 0 | share of Oxidation +(O) metabolites in ∑ n [1]: 7(88%) | LC-MS Library: metabolites generated [2]: Phase I metabolites: (-(H4)+(O))- β-ZOL (-(H2)+(O))- β-ZOL (+O)- β-ZOL Glucuronides: Gluc-16- β-ZOL, Gluc-14- β-ZOL, Gluc-7- β-ZOL, Gluc-(+O)- β-ZOL, 2 × Gluc- β-ZOL | glucuronides of parent toxins at position C-14 [3]: 27% | share of species, Figure 7 pie [3]: 48% | sum of parent glucuronides [3]: 49%
